Data as given in PubChem BioAssay AID624099 (ICCB-Longwood, 2012)
Assay: 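Host factors E2 relies on to silence an HPV18 LCR reporter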 (primary screen). System: human C33A cervical carcinoma cells (HPV-negative) stably expressing BPV1 E2 and an HPV18 LCR luciferase reporter. Reagents: siRNA pool against human genes, 40 nM. Duration: 72 h. Measured: 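HPV18 LCR reporter light per well, converted to plate-wise z-scores that exclude control wells, and averaged over triplicate plates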. Scale: mean z-score and z-score: higher = stronger reporter signal, weaker E2 silencing. Active means: 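Mean z ≥ 2 together with z ≥ 2 in two or more of the three replicates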.
In all, the deposit lists about 21,000 reagents; shown is a part drawn at random. 497 of them (2.4%) count as active. 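Higher z means weaker E2 silencing; only reporter increases were scored, and knock-downs that hurt cell survival may mask genuine repressor factors.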 Unmarked entries are inactive. The numbers tell different reagents against one gene apart.

The first 2 entries, to show the layout:
DGCR8 — mean z-score: 0.04; z-score, replicate A: -0.33; z-score, replicate B: -0.01; z-score, replicate C: 0.47
SALL4 — mean z-score: 1.63; z-score, replicate A: 1.91; z-score, replicate B: 1.59; z-score, replicate C: 1.39

The listing, repeating the preview:
DGCR8 — mean z-score: 0.04; z-score, replicate A: -0.33; z-score, replicate B: -0.01; z-score, replicate C: 0.47
SALL4 — mean z-score: 1.63; z-score, replicate A: 1.91; z-score, replicate B: 1.59; z-score, replicate C: 1.39
IRX3 — mean z-score: 0.63; z-score, replicate A: 0.99; z-score, replicate B: 0.25; z-score, replicate C: 0.65
USP9X — mean z-score: 0.04; z-score, replicate A: 0.03; z-score, replicate B: 0.15; z-score, replicate C: -0.07
PURA — mean z-score: -1.75; z-score, replicate A: -1.83; z-score, replicate B: -1.72; z-score, replicate C: -1.7
ZNF677 — mean z-score: -0.73; z-score, replicate A: -0.76; z-score, replicate B: -0.48; z-score, replicate C: -0.95
HMGN1 — mean z-score: 1.17; z-score, replicate A: 1.35; z-score, replicate B: 1.13; z-score, replicate C: 1.03
DENND1B #1 — mean z-score: -0.09; z-score, replicate A: -0.29; z-score, replicate B: -0.12; z-score, replicate C: 0.14
DENND1B #2 — mean z-score: -1.63; z-score, replicate A: -1.63; z-score, replicate B: -1.5; z-score, replicate C: -1.75
VMO1 — mean z-score: 0.89; z-score, replicate A: 3.26; z-score, replicate B: -0.07; z-score, replicate C: -0.53
LINC02243 — mean z-score: 2.38 (active); z-score, replicate A: 2.55; z-score, replicate B: 2.7; z-score, replicate C: 1.89
MAP1B — mean z-score: 2.27 (active); z-score, replicate A: 2.13; z-score, replicate B: 2.43; z-score, replicate C: 2.26
ZCCHC13 — mean z-score: 0.36; z-score, replicate A: 0.43; z-score, replicate B: 0.39; z-score, replicate C: 0.25
FAM133B — mean z-score: 0.54; z-score, replicate A: 0.29; z-score, replicate B: 0.61; z-score, replicate C: 0.71
OR2AT4 — mean z-score: 0.12; z-score, replicate A: 0.08; z-score, replicate B: -0.11; z-score, replicate C: 0.39
CCT5 — mean z-score: 0.97; z-score, replicate A: 1.16; z-score, replicate B: 0.78; z-score, replicate C: 0.96
SLC7A9 — mean z-score: 1.02; z-score, replicate A: 0.81; z-score, replicate B: 0.91; z-score, replicate C: 1.33
CLCN7 — mean z-score: -0.66; z-score, replicate A: -0.54; z-score, replicate B: -0.66; z-score, replicate C: -0.78
PTCD3 — mean z-score: -0.26; z-score, replicate A: -0.26; z-score, replicate B: 0; z-score, replicate C: -0.53
DES — mean z-score: 1.02; z-score, replicate A: 1.11; z-score, replicate B: 1.05; z-score, replicate C: 0.9
SLC41A1 — mean z-score: -1.36; z-score, replicate A: -1.12; z-score, replicate B: -1.2; z-score, replicate C: -1.76
